PubChem BioAssay AID624099 – ICCB-Longwood – 2012
Shown is one part, drawn at random, of about 21,000 reagents. Over the whole deposit, 497 (2.4%) got an active call. 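Higher z means weaker E2 silencing; only reporter increases were scored, and knock-downs that hurt cell survival may mask genuine repressor factors.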 Unmarked entries are inactive. The numbers tell different reagents against one gene apart. No sequences are given here.

- Aim: 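Host factors E2 relies on to silence an HPV18 LCR reporter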 (primary screen)
- Cells: human C33A cervical carcinoma cells (HPV-negative) stably expressing BPV1 E2 and an HPV18 LCR luciferase reporter
- Reagents: siRNA pool against human genes, 40 nM
- Duration: 72 h
- Detection: 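HPV18 LCR reporter light per well, converted to plate-wise z-scores that exclude control wells, and averaged over triplicate plates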
- Scale: mean z-score and z-score: higher = stronger reporter signal, weaker E2 silencing
- Rule for the call: 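Hit if mean z-score reaches 2 and two or more of three replicate z-scores also reach 2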

mean z-score | z-score, replicate A | z-score, replicate B | z-score, replicate C | Gene | pool no.
-0.92 | -1 | -0.83 | -0.95 | SACM1L (GeneID 22908) | 1
-0.42 | -0.18 | -0.19 | -0.9 | CHEK1 (GeneID 1111) | 1
0.58 | 0.75 | 1.11 | -0.11 | HHIPL1 (GeneID 84439) | 1
0.04 | 0.24 | 0.09 | -0.22 | CDH4 (GeneID 1002) | 1
-0.45 | -0.67 | -0.31 | -0.38 | MB21D2 (GeneID 151963) | 1
-0.2 | -0.18 | -0.26 | -0.15 | MEIOSIN (GeneID 388553) | 1
0.7 | 0.68 | 0.7 | 0.72 | GLRB (GeneID 2743) | 1
-0.44 | -0.24 | -0.53 | -0.56 | RNF168 (GeneID 165918) | 1
-0.68 | -0.47 | -0.82 | -0.74 | PALLD (GeneID 23022) | 1
-0.05 | -0.17 | 0.04 | -0.01 | LOC389319 (retired record) (GeneID 389319) | 1
-0.41 | -0.3 | -0.55 | -0.39 | CREB3L3 (GeneID 84699) | 1
1.79 | 1.88 | 1.84 | 1.66 | TMED9 (GeneID 54732) | 1
-0.28 | -0.26 | -0.16 | -0.41 | ADH6 (GeneID 130) | 1
-0.33 | -0.65 | -0.36 | 0.01 | HAGH (GeneID 3029) | 1
0.85 | 1.13 | 0.51 | 0.91 | PLA2G2A (GeneID 5320) | 1
0.76 | 0.73 | 1.01 | 0.54 | EXOC5 (GeneID 10640) | 1
1.62 | 1.63 | 1.37 | 1.85 | VGLL4 (GeneID 9686) | 1
-0.29 | -0.63 | -0.15 | -0.09 | SAFB2 (GeneID 9667) | 1
-0.37 | -0.62 | -0.32 | -0.18 | SLC26A6 (GeneID 65010) | 1
0.28 | 0.41 | 0.21 | 0.22 | CRB1 (GeneID 23418) | 1
0.92 | 0.81 | 1.01 | 0.93 | CCDC69 (GeneID 26112) | 1
-0.12 | -0.29 | -0.07 | -0.01 | FAM133A (GeneID 286499) | 1
0.05 | 0.17 | 0 | -0.03 | AOAH (GeneID 313) | 1
0.73 | 0.85 | 0.52 | 0.83 | LINC02213 (GeneID 389273) | 1
-1.61 | -1.6 | -1.48 | -1.74 | NFIB (GeneID 4781) | 1
-1.94 | -1.88 | -2.05 | -1.88 | ATOH8 (GeneID 84913) | 1
-0.19 | -0.38 | 0.03 | -0.22 | PSD2 (GeneID 84249) | 1
-0.39 | -0.33 | -0.54 | -0.28 | SEC23A (GeneID 10484) | 1
0.55 | 0.4 | 0.64 | 0.6 | TERT (GeneID 7015) | 1
0.54 | 0.36 | 0.6 | 0.66 | NCK1 (GeneID 4690) | 1
-0.42 | -0.57 | -0.42 | -0.27 | TMEM161A (GeneID 54929) | 1
-1.35 | -1.47 | -1.47 | -1.09 | FAM182A (GeneID 284800) | 1
-0.14 | -0.32 | 0.25 | -0.36 | TBC1D2 (GeneID 55357) | 1
-0.35 | -0.21 | -0.6 | -0.25 | SLC7A7 (GeneID 9056) | 1
-0.46 | -0.79 | -0.24 | -0.36 | ACTN2 (GeneID 88) | 1
3.11 (active) | 2.27 | 3.76 | 3.29 | FOXI2 (GeneID 399823) | 1
0.79 | 0.8 | 1 | 0.55 | ZNF117 (GeneID 51351) | 1
2.08 | 2.48 | 1.98 | 1.79 | ZNF117 (GeneID 51351) | 2
0.4 | 0.62 | 0.13 | 0.45 | CHSY1 (GeneID 22856) | 1

A stretch from the list above:
mean z-score | z-score, replicate A | z-score, replicate B | z-score, replicate C | Gene | pool no.
0.54 | 0.36 | 0.6 | 0.66 | NCK1 (GeneID 4690) | 1
-0.42 | -0.57 | -0.42 | -0.27 | TMEM161A (GeneID 54929) | 1
-1.35 | -1.47 | -1.47 | -1.09 | FAM182A (GeneID 284800) | 1
-0.14 | -0.32 | 0.25 | -0.36 | TBC1D2 (GeneID 55357) | 1
-0.35 | -0.21 | -0.6 | -0.25 | SLC7A7 (GeneID 9056) | 1
